PubChem BioAssay AID1259414 – Drosophila RNAi Screening Center, 2018
Aim: 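Genome-wide screen for host control of endosymbiont load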 (primary screen). Cell system: Drosophila JW18 cells infected with Wolbachia. Reagents: long dsRNA against Drosophila genes, 0.25 µg dsRNA per well of a 384-well plate. Timing: 5 days. Conditions: cells persistently infected with Wolbachia before knock-down; no added drug. Detection: 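Automated imaging of bacterial rRNA staining divided by host cell count, reported as plate-normalised robust z-score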. Scale: Wolbachia per cell robust z: higher = more Wolbachia per host cell than the plate typical. Rule for the call: 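Hit when robust z is 1.5 or more, or -1.5 or less, in at least two of three replicates; excludes dsRNAs with several or no targets, genes not expressed in JW18 and well A1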.
The screen tested about 24,000 reagents; below is a random part of those with a known target gene and a result. In the full data, about 1,210 (5%) are marked active. 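Inactive calls also include excluded dsRNAs with several or no targets, genes unexpressed in JW18, and well A1, regardless of score.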 A number with no mark means an inactive call. Reagents against one gene are numbered here. Names joined by + are all predicted targets of the reagent.

The opening 2 entries, ahead of the listing:
target | reagent no. | Wolbachia per cell robust z, rep 1 | Wolbachia per cell robust z, rep 2 | Wolbachia per cell robust z, rep 3
pita (GeneID 37730) | 1 | 0.431 | 0.327 | -0.0265
pita (GeneID 37730) | 2 | 1.08 | -3.33 | -0.364

The listing, from the first entry:
target | reagent no. | Wolbachia per cell robust z, rep 1 | Wolbachia per cell robust z, rep 2 | Wolbachia per cell robust z, rep 3
pita (GeneID 37730) | 1 | 0.431 | 0.327 | -0.0265
pita (GeneID 37730) | 2 | 1.08 | -3.33 | -0.364
Atg6 (GeneID 42850) | 1 | 0.542 | 0.201 | -1.98
Atg6 (GeneID 42850) | 2 | -0.739 (active) | 1.51 | 2.52
CG1360 (GeneID 35695) | 1 | 1.24 | -0.0111 | 0.413
CG1360 (GeneID 35695) | 2 | -0.727 | -0.256 | -0.0737
CG7222 (GeneID 36138) | 1 | 0.562 | 0.572 | -2.66
CG13760 (GeneID 31237) | 1 | 0.704 | 0.147 | 0.226
AP-1sigma (GeneID 42835) | 1 | -0.318 | -0.287 | -2.3
Remo (GeneID 2768909) | 1 | -4.18 | -0.337 | 0.316
boca (GeneID 48986) | 1 | -0.006 | 0.857 | -1.16
Reph (GeneID 47399) | 1 | 0.336 | -0.0199 | -1.09
Reph (GeneID 47399) | 2 | 0.15 | -0.621 | 0.493
Reph (GeneID 47399) | 3 | -0.412 | -6.43 | 1.37
CG13801 (GeneID 38299) | 1 | -0.223 | -0.0788 | -0.29
CG16741 (GeneID 59232) | 1 | -0.359 | -0.92 | -0.00806
CG16741 (GeneID 59232) | 2 | -2.2 | -1.28 | -2.77
Sema1a (GeneID 34192) | 1 | 0.0972 | 0.694 | 0.267
CHES-1-like (GeneID 31678) | 1 | -0.599 | -6.18 | -0.167
Bdbt (GeneID 42503) | 1 | -0.125 | -0.264 | 0.202
Ugt37B1 (GeneID 53584) | 1 | -1.74 | -1.66 | 0.267
Cyp313b1 (GeneID 41019) | 1 | -1.43 | -12.8 | 0.0331
pnut (GeneID 35801) | 1 | 0.946 | -0.609 | -0.0655
pnut (GeneID 35801) | 2 | 0.93 | -0.0505 | 1.2
CG1441 (GeneID 36029) | 1 | -0.183 | 0.489 | -0.27
CG1441 (GeneID 36029) | 2 | 1.02 | -0.322 | 0.235
Naa20A (GeneID 32962) | 1 | 0.03 | -0.962 | -0.749
Obp57c + Obp57b | 1 | -3.12 | -1.48 | -0.233
